Source: ChEMBL document CHEMBL3988442, “University of Dundee, Small-Polar-MMV Screening Library” (2021).

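Growth of Mycobacterium tuberculosis over 3 days (7H9 medium with glucose and tyloxapol); the read-out is not stated. Tested at 500 µM. Direction is inferred from retests: higher values go with more growth inhibition. Size under these conditions: about 18,000 compounds, about 1,400 of them at 50% or above in at least one test.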

Values are the deposited “Percent Effect”, in %. The record does not define 0% and 100%; most values in the screen are far below 50% and negative numbers occur (in some assays of this library far below -100). Many other results are left out here, so strong results are more common than in the screen.

| SMILES | effect |
|---|---|
| `CC(C)(C)C(O)CN` (stereo unspecified) | 7.211% |
| `CCNC(=O)CNc1ccnc2ccc(Br)cc12` | 5.745% |
| `Cc1c(Br)cccc1S(=O)(=O)NCCN` | 64.6% |
| `O=C(CNc1ccccc1OC(F)F)N1CCNC1=O` | 40.07% |
| `O=C(CCn1ccnc1)N1CCCCC1CO` (stereo unspecified) | -8.699% |
| `COC(=O)c1ccc(CSc2n[nH]c(=O)n2C)o1` | 20.22% |
| `CN(c1ccc(F)cc1)S(=O)(=O)N1CCCCC1` | 68.94% |
| `Cc1ncn(CC(=O)N2CC[C@](C)(O)[C@H](C)C2)c1C` | 6.28% |
| `OC(c1cc2n(n1)CCN(Cc1ccoc1)C2)C1CC1` (stereo unspecified) | 4.969% |
| `CNCc1cccc(OC)n1` | 8.913% |
| `CC(=O)N1CCCN(Cc2nc(C3CC3)no2)CC1` | 14.86% |
| `CC(C(=O)N[C@@H](C)CO)c1ccsc1` (stereo partly specified) | -2.397% |
| `CN(Cc1ccco1)C(=O)CCc1ccc(C#N)cc1` | 103.6% |
| `NC(=O)c1ccc(CNC(=O)CCc2ccccc2)o1` | 9.586% |
| `COCCn1cnnc1CCNC(=O)c1cnccn1` | -2.844% |
| `CN(CCCC1CCCO1)C(=O)c1ccc(CO)cc1` (stereo unspecified) | 12.57% |
| `c1ccc(N2CCCNCC2)nc1` | 9.475% |
| `CC(C)CC(C)Oc1cc(CNS(N)(=O)=O)ccn1` (stereo unspecified) | 56.82% |
| `CCC(=O)c1cccc(OC)n1` | -3.029% |
| `CCOc1ccc(Cl)cc1CNc1nnnn1C` | 34.25% |
| `CCC(=O)NCCNc1ccc2ccccc2n1` | 31.55% |
| `CCNC(=O)NCCN(C)C` | 18.33% |
| `CNC(=O)c1csc(Br)c1` | 20.78% |
| `NCCC1CN(Cc2ccccc2)CCO1` (stereo unspecified) | 23.45% |
| `O=C(c1ccccn1)N1CCN(C(=O)C2CC2)CC1` | 5.735% |
| `CCNCCNC(=O)Cc1ccc(F)cc1F` | -0.6015% |
| `C[C@H](NC(=O)C1(C#N)CCCCC1)C(N)=O` | 12.03% |
| `CN(C)C(=O)c1csc2c1CCCC2` | 46.53% |
| `CC(NCCCN1CCCC1)C(=O)NC1CCCC1` (stereo unspecified) | 26.11% |
| `N#CCCn1ncc2c(NCc3cccs3)ncnc21` | 65.03% |
| `CN(CCN1CCCC1)S(=O)(=O)c1ccccc1` | 59.31% |
| `CCOc1cc(C(=O)NC)cc(OCC)c1OCC` | 16.98% |
| `COc1cc(N2CCNCC2)cc(OC)c1OC` | 30.42% |
| `CNC(=O)c1cc(OC2CCNC2)ccn1` (stereo unspecified) | 31.86% |
| `CC(NC(=O)c1ccco1)c1ccccn1` (stereo unspecified) | 41.54% |
| `COCC(N)c1ccc(F)c(F)c1` (stereo unspecified) | 4.387% |
| `O=S(=O)(NC1CCCC1)c1cncc(Cl)c1` | 69.36% |
| `CC(C)[C@@H](CO)NCc1ncn(-c2ccccc2)n1` | 5.321% |
| `CN(Cc1ccc(N)nc1)c1ccc(C#N)cn1` | 51.84% |
| `CCS(=O)(=O)CC(C)Nc1nccnc1C#N` (stereo unspecified) | 5.454% |
| `CCn1nc(C)cc1C(=O)NC(C)c1nc(C)c[nH]1` (stereo unspecified) | 6.612% |
| `CCC(C)(C)NC(=O)c1nnn(-c2ccccc2)c1C` | 70.17% |
| `COCCN1CCCC(C(=O)NCC(F)(F)F)C1` (stereo unspecified) | -12.27% |
| `O=C(NCc1cccc(Cn2cncn2)c1)C1CC1` | 8.761% |
| `O=C(c1ccc(Br)s1)N1CCN(c2ccccn2)CC1` | -5.09% |
| `O=C(CN1CSCC1=O)NCCC1=CCCCC1` | 21.45% |
| `CN(Cc1ccccc1)C(=O)C1CCNCC1` | 9.937% |
| `CCS(=O)(=O)NCc1ccccc1F` | 17.3% |
| `[H][C@]12CNC[C@]([H])(CN(S(=O)(=O)c3ccc(OC)cc3)C1)O2` | 17.86% |
| `OCCOc1ccc(OCCO)cc1` | 12.94% |
| `CCS(=O)(=O)NC1CCN(c2cc(Br)ccn2)CC1` | 63.36% |
| `Cc1cccc(CCC(=O)OC(C)C(N)=O)c1` (stereo unspecified) | 27.22% |
| `COc1cccnc1NCc1cc(C(N)=O)cs1` | 24.07% |
| `CCCn1nnnc1NCc1ccc(F)cc1` | 76.53% |
| `Cc1nnsc1C(=O)Nc1ccccn1` | 16.51% |
| `O=C(NC1CCNCC1)c1ccc[nH]1` | 1.8% |
| `CCn1ccnc1C1CCN(C(=O)CNC)CC1` | -7.125% |
| `CCOCCOCC(O)CN` (stereo unspecified) | 2.724% |
| `O=C(NC1=NCCS1)c1csc(Br)c1` | 35.32% |
| `COc1ccccc1CC(=O)Nc1ccon1` | 23.74% |
| `CSCCC(O)C(=O)N(C)CCc1ccncc1` (stereo unspecified) | 7.186% |
| `Cc1ccc(CNC(=O)c2ccncc2)cc1F` | -9.784% |

Once more, the final 5:

{"smiles": "CCOCCOCC(O)CN", "stereo": "stereo unspecified", "effect": 2.724}
{"smiles": "O=C(NC1=NCCS1)c1csc(Br)c1", "effect": 35.32}
{"smiles": "COc1ccccc1CC(=O)Nc1ccon1", "effect": 23.74}
{"smiles": "CSCCC(O)C(=O)N(C)CCc1ccncc1", "stereo": "stereo unspecified", "effect": 7.186}
{"smiles": "Cc1ccc(CNC(=O)c2ccncc2)cc1F", "effect": -9.784}